Data source: PubChem BioAssay AID1224833 (University of Georgia, 2016)

Purpose: 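Host factors restraining rotavirus as candidate antiviral genes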 (primary screen)
Cell system: monkey MA104 kidney cells
Knock-down reagent: siRNA pool against human genes, 50 nM
Time to read-out: 48 h knock-down before infection; read 24 h after infection
Treatment: infection with rotavirus strain RV3 two days after transfection; infectious dose for this stage not given
Read-out: 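Rotavirus antigen per well by fluorescent immunoassay, normalised to non-targeting control wells on each plate and given as a standard z-score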
Direction: z-score vs non-targeting control: higher = more rotavirus replication than with non-targeting control
Call rule: In these data the active calls have z-score vs non-targeting control at about -1 or lower, or at about 1 or higher
Calls: active = z-score beyond 1 either way; inactive = z-score within 1 of zero
Here is a random part of about 12,000 reagents. Over the whole deposit, about 5,600 (46%) were called active. 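Active calls cover z-scores past 1 in both directions, so they include lowered as well as raised rotavirus replication.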

target	z-score vs non-targeting control	activity call
NFKB2	0.954	inactive
OR2B2	0.0781	inactive
CLDN1	0.284	inactive
APOM	-1.67	active
NPS	-0.761	inactive
PYGM	0.577	inactive
ZNF626	0.0941	inactive
CREG1	-0.539	inactive
CPZ	0.865	inactive
SGCE	-0.783	inactive
CD79B	1.35	active
CHRDL1	0.118	inactive
NOP9	0.0396	inactive
AMY2A	-1.63	active
FANCE	-1.52	active
TNFRSF13C	0.27	inactive
ARHGAP8	-2.35	active
WDR26	-0.277	inactive
PIWIL1	2.03	active
STXBP5	1.11	active
ENTPD2	-1.58	active
CDS2	-1.45	active
CNNM4	0.658	inactive
ATG4D	1.45	active
OPRPN	1.13	active
CFAP54	2.2	active
MORC2	-0.556	inactive
OLFML1	-2.01	active
MAEL	1.35	active
SERPINA11	-1.04	active
PRM2	1.66	active
WDR91	-1.21	active
KRAS	-1.53	active
SNTA1	-1.01	active
LRRN4CL	-1.18	active
PLAC4	1.19	active
BCL11A	0.682	inactive
HS6ST3	-0.994	inactive
C1QA	-2.14	active
MRPL14	-1.05	active
VPS36	1.75	active
LEMD2	0.111	inactive
SLC25A28	-2.13	active
ECSIT	-1.13	active
RLN1	1.18	active
MRPS18C	0.369	inactive
DENND2A	0.775	inactive
TLE3	1.59	active
COG2	0.115	inactive
OR9Q2	-2.59	active
TECR	-0.15	inactive
LINC01600	0.106	inactive
ANO2	-0.0308	inactive
LIAS	-0.667	inactive
TET2	-1.51	active
AKAP17A	0.375	inactive
GAD1	0.97	inactive
SLC44A2	2.86	active
RPS4Y1	-0.172	inactive
ZNF630	-0.18	inactive
ZNF785	-0.517	inactive
CRLF2	-0.545	inactive
SNX19	-0.596	inactive
H4C8	2.44	active
PRIMPOL	1.58	active
OR10A2	1.09	active
CCNQ	1.45	active
SPTY2D1	1.37	active
EOLA2	0.0735	inactive
FTCD	-0.979	inactive
HSFX1	-0.346	inactive
EPDR1	0.046	inactive
APC2	0.677	inactive
DHX29	-0.995	inactive
COL20A1	0.519	inactive
NDC80	1.52	active
LACRT	0.0558	inactive
YTHDF2	0.938	inactive
WNT8A	0.17	inactive
GPR26	1.02	active
KIF20A	2.49	active
GADD45B	-1.85	active

Copied from the entries so far for reference:
target	z-score vs non-targeting control	activity call
SLC44A2	2.86	active
RPS4Y1	-0.172	inactive
ZNF630	-0.18	inactive
ZNF785	-0.517	inactive
CRLF2	-0.545	inactive
SNX19	-0.596	inactive
H4C8	2.44	active
PRIMPOL	1.58	active
OR10A2	1.09	active
CCNQ	1.45	active
SPTY2D1	1.37	active
EOLA2	0.0735	inactive
FTCD	-0.979	inactive
HSFX1	-0.346	inactive

More records follow:
target	z-score vs non-targeting control	activity call
TMBIM4	1.3	active
RAB11FIP5	-0.192	inactive
NKX2-5	-2.09	active
PHLDB2	-0.526	inactive
TM4SF5	1.5	active
RBP3	2.88	active
SASH3	-0.293	inactive
OR10G4	-1.83	active
MOB3B	-0.552	inactive
RBM17	0.0063	inactive
YIPF5	-1.73	active
ZFHX2	0.363	inactive
POLR2J	-1.35	active
PSME3	-0.158	inactive
OGDH	1.3	active
LAMP2	-1.52	active
PPFIBP1	0.0455	inactive
AGRP	-1.18	active
CDSN	-2.11	active
MON1B	-0.195	inactive
TBCD	-0.897	inactive
CSF3	0.72	inactive
PAIP2	0.591	inactive
SUPT7L	-0.982	inactive
OR2T8	-1.5	active
TMEM168	1.15	active
OTOS	-0.692	inactive
SLC39A12	1.36	active
BLVRB	1.12	active
CNN3	0.433	inactive
RAB3C	-0.802	inactive
TMEM89	-4.88	active
ANKRD23	-0.834	inactive
PCDHB2	-2.42	active
SIRT4	0.764	inactive
WNT5A	0.772	inactive
CCDC120	1.04	active
IDH3G	-0.986	inactive
OR5M3	-0.996	inactive
ZNF34	1.89	active
EDC4	1.39	active
F10	1.41	active
IL18BP	0.424	inactive
TGFBI	-4.79	active
PCDHGA9	0.193	inactive
FAM220A	-0.556	inactive
TOR1AIP1	-0.459	inactive
RILP	-0.253	inactive
CYS1	-0.173	inactive
CHN1	1.42	active
BATF2	1.06	active
DBX2	-1.54	active
GUCA1C	-1.77	active
BTBD9	-0.876	inactive
ABTB3	-0.479	inactive
ATP5MJ	0.534	inactive
GAPDH	-2.43	active
FKBP15	-1.33	active
